Measurements: article PMC6753678, “Fueling Open Innovation for Malaria Transmission-Blocking Drugs: Hundreds of Molecules Targeting Early Parasite Mosquito Stages” (Frontiers in Microbiology, 2019)

Assays:
[1] = test system: P. falciparum late stage (stages IV-V) gametocytes; assay: P. falciparum late stage gametocyte ATP depletion assay (Pf GC-ATP)
[2] = test system: P. falciparum female gametocytes; assay: P. falciparum female gametogenesis assay (Pf FGAA); details: >10-fold green
[3] = unified cytotox / Pf GC-ATP IC50, red: <10-fold selectivity, green: >10-fold
[4] = unified cytotox / Pf GC-ATP IC50, <10-fold selectivity red, >10-fold green

SMILES	Assay tox ratio Pf GC-ATP [1, 3]	further results
COCCCNC(=S)NN=C(C)c1ccccn1 [TCMDC-137907]	106.25	
Cc1cccc2nc(-c3ccc(-c4cccc(CNCCN5CCNCC5)c4)cc3)[nH]c12 [TCMDC-132867]	15.95	
O=C(NCCc1ccccc1)N(Cc1cccc(-c2ccc(CNC3CCCC3)cc2)c1)C1CCN(Cc2ccccc2)CC1.O=C(O)C(F)(F)F [TCMDC-140618]	5.66	
CC(C)CCNC(=O)c1cnc2c(O)cccc2c1Nc1cccc(NC(=O)c2ccc(F)cc2)c1.O=C(O)C(F)(F)F [TCMDC-139606]	4.15	
CCCCN1CCN(CCCCNc2c3ccccc3nc3ccccc23)CC1.Cl [TCMDC-137569]	10.66	
Cl.O=C(NCCCCN1CCC(c2ccc3c(c2OCCO)CCCC3)CC1)c1ccc2oc(-c3ccc(C(F)(F)F)cc3)cc2c1 [TCMDC-138771]	10.46	
Cc1cccnc1Nc1nc(-c2ccccn2)cs1 [TCMDC-125846]	30.20	
COc1ccc(NC(=O)C2c3ccccc3C(=O)N(CC(C)C)C2c2cccs2)cc1OC (stereo not drawn) [TCMDC-125289]	58.59	
CCCCOc1ccc(C(=O)C(CCC(CNC(C)(C)C)C(=O)c2ccc(OCCCC)cc2)CNC(C)(C)C)cc1.Cl (stereo not drawn) [TCMDC-124120]		Assay tox ratio Pf GC-ATP [1, 4]: 10.33
CS(=O)(=O)O.FC(F)(F)COc1c(CCNCCCCNCCc2ccc3ccccc3c2OCC(F)(F)F)ccc2ccccc12 [TCMDC-137169]	28.00	
Cc1cc(F)ccc1-c1nc(NCC(O)CNCCc2ccccc2)nc2c1ccc(=O)n2-c1c(F)cccc1F.O=C(O)C(F)(F)F (stereo not drawn) [TCMDC-141784]		Assay tox ratio Pf GC-ATP ([1]; unified cytotox / IC50, <10-fold red, >10-fold green): 50.57
Cl.N=C(N)NN=Cc1c2ccccc2c(Cl)c2cc(Cl)ccc12 [TCMDC-137903]	3.20	
CCc1c(CCNCCCC(C)CCNCCc2ccc(OC)c(OC)c2CC)ccc(OC)c1OC.Cl (stereo not drawn) [TCMDC-132065]	13.24	
CN(C)CCCn1c(N)c(-c2nc3ccccc3[nH]2)c2nc(C#N)c(C#N)nc21 [TCMDC-123729]	34.65	
CCCCCCCN1CC[C@@H](CCCc2ccnc3ccc(OCCC4CCNCC4)cc23)[C@@H](CC)C1.Cl [TCMDC-139819]	10.84	
Cc1cccc(-c2nc(Nc3ccncc3)c3cc(N(C)C)ccc3n2)n1 [TCMDC-135308]	9.40	
COc1cccc(C(=O)NC(C=Cc2ccccc2)c2cc(Cl)c3cccnc3c2O)c1 (stereo not drawn) [TCMDC-125550]	42.74	
O=C(O)C(=O)O.Oc1c(CN2CCC(Cc3ccccc3)CC2)cc(Cl)c2cccnc12 [TCMDC-124594]		Assay tox ratio Pf GC-ATP [1, 4]: 16.00
CCOc1c(CCNCCCCNCCc2ccc3ccccc3c2OCC)ccc2ccccc12.CS(=O)(=O)O [TCMDC-137759]	144.23	
CCCCCCCN1CC[C@@H](CCCc2ccnc3ccc(OCC4CCCNC4)cc23)[C@@H](CC)C1.Cl (stereo partly drawn) [TCMDC-139816]	13.93	
Cl.N=c1n(Cc2ccc(Cl)cc2)c2ccccc2n1CC(O)c1ccc(Cl)c(Cl)c1 (stereo not drawn) [TCMDC-123813]		Assay tox ratio Pf GC-ATP [1, 4]: 18.22
CC(C)CNCc1ccc(-c2cccc(CN(C(=O)NC3CCCCC3)C3CCN(Cc4ccccc4)CC3)c2)cc1.O=C(O)C(F)(F)F [TCMDC-140628]	1.09	
Cc1cc(Nc2ccncc2)n2nc(C)c(-c3ccc(Cl)cc3)c2n1 [TCMDC-124478]		Assay tox ratio Pf GC-ATP [1, 4]: 54.79
CN(C)CCNC(=O)c1ccc(-c2cnc3ccc(NCc4ccc(Cl)c(Cl)c4)nn23)cc1 [TCMDC-136678]	49.98	
CCN(CC)CCOc1ccc(C(O)(C#CC(O)(c2ccc(OCCN(CC)CC)cc2)c2ccc([N+](=O)[O-])cc2)c2ccc([N+](=O)[O-])cc2)cc1 (stereo not drawn) [TCMDC-137201]	27.64	
CC(C)(CNC(=O)[C@H]1CCCCN1)c1nc(-c2ccc(Cl)c(O)c2)c(-c2ccncc2)[nH]1.Cl [TCMDC-141070]		Assay tox ratio Pf FGAA ([2]; unified cytotox / IC50, <10-fold red): 84.96
Br.CC(C)(Cc1ccc(Cl)cc1)NCCCCCCNCCc1ccc(O)c(O)c1 [TCMDC-131277]		Assay tox ratio Pf FGAA ([2]; unified cytotox / Pf FGAA IC50, <10-fold selectivity red): 1.14
